Measured values from several laboratories, pooled; numbers as filed in NIAID ChemDB.

Common to all: tests on isolated targets; organism: HIV-1; protein: Reverse transcriptase; measure: inhibition

Rows are shuffled and stem from different studies.

{"smiles": "COc1cc2oc(-c3ccc(O)cc3)cc(=O)c2c(O)c1OC", "tested at": "100 µg/mL", "read by": "RT activity / absorbance", "value": "55%"}
{"smiles": "CN=C1CN=C(c2ccc[nH]2)c2cc(Cl)ccc2N1", "tested at": "250 µM", "read by": "ELISA", "value": "84%"}
{"smiles": "C=CC(C)(C)c1c2c(c(O)c3c(=O)c4ccc(O)c(O)c4oc13)C=CC(C)(C)O2", "tested at": "200 µg/mL", "read by": "RT activity / radiometric", "value": "93.03%"}
{"smiles": "CC[C@H]1CN2CCc3cc(OC)c(OC)cc3[C@@H]2C[C@@H]1C[C@H]1NCCc2cc(O)c(OC)cc21", "tested at": "400 µg/mL", "value": "10–20%"}
{"smiles": "CC(C)=CC(=O)C[C@@H](C)[C@H]1CC[C@@]2(C)[C@@H]3CC[C@H]4C(C)(C)[C@@H](O)C[C@H](O)[C@@]45C[C@@]35CC[C@]12C", "tested at": "200 µg/mL", "read by": "nucleotide incorporation / radiometric", "value": "61.5%"}
{"smiles": "O=C1CSC(c2c(Cl)cccc2Cl)N1n1cnnc1", "tested at": "10 µg/mL", "read by": "RT activity / ELISA / absorbance", "value": "16.72%"}
{"smiles": "CC(=O)N(/C=C/c1ccccc1Br)Cc1c(F)cccc1F", "tested at": "200 µg/mL", "read by": "ELISA", "value": "57.33%"}
{"smiles": "COc1ccc([C@@H]2Oc3ccc(C=O)cc3C2C)cc1OC", "tested at": "200 µg/mL", "read by": "RT activity / radiometric", "value": "46.5%"}
{"smiles": "COc1cccc2c1cc([N+](=O)[O-])c1c(C(=O)O)cc3c(c12)OCO3", "strain or isolate": "LAV", "tested at": "500 µg/mL", "value": "52.29%"}
{"smiles": "CCN(/C=C/c1ccc(OC)cc1OC)C(C)=O", "tested at": "200 µg/mL", "read by": "ELISA", "value": "34.73%"}
{"smiles": "CC(C)(O)[C@H]1Cc2c(O)cc(-c3ccccc3)cc2O1", "tested at": "200 µg/mL", "read by": "RT activity / radiometric", "value": "7.84%"}
{"smiles": "COc1cc(O)c2c(=O)cc(-c3cc(OC)c(OC)c(OC)c3OC)oc2c1", "tested at": "200 µg/mL", "read by": "nucleotide incorporation / radiometric", "value": "3%"}
{"smiles": "CC1=C(/C=C/C(C)=C/C=C/C(C)=C/C(=O)O)C(C)(C)CCC1", "tested at": "200 µM", "read by": "ELISA", "value": "50%"}
{"smiles": "O=c1c(-c2ccccc2)coc2ccccc12", "strain or isolate": "LAV", "tested at": "500 µg/mL", "read by": "RT activity", "value": "40.21%"}
{"smiles": "O=[As]O", "tested at": "10 µM", "read by": "ELISA", "value": "27%"}
{"smiles": "Nc1nc(Cl)c2ncn([C@H]3C=C[C@@H](COP([O-])(=S)OP(=O)(O)C(F)(F)P(=O)(O)O)C3)c2n1", "tested at": "10 µM", "read by": "fluorescence", "value": "3.9%"}
{"smiles": "Cc1ccc2nc(-c3ccccc3Cl)c(NC3CCCCC3)n2c1", "tested at": "50 µM", "read by": "ELISA", "value": "89.2%"}
{"smiles": "C=C/C=C(\\C=C/Cc1c2nc(c(-c3ccc(S(=O)(=O)NCCN(CC)CC)cc3)c3ccc([n-]3)c(C/C=C\\C(=C/C=C)S(=O)(=O)NCCN(CC)CC)c3ccc([n-]3)c(-c3ccc(S(=O)(=O)NCCN(CC)CC)cc3)c3nc1C=C3)C=C2)S(=O)(=O)NCCN(CC)CC.[O]=[V+2]", "tested at": "50 µM", "read by": "ELISA", "value": "73%"}
{"smiles": "CCN1c2ncc(COc3ccc(F)cc3)cc2C(=O)N(C)c2ccc(Cl)nc21", "tested at": "1 µM", "read by": "RT activity", "mutations": "RT-Y188L", "value": "2%"}
{"smiles": "Cc1cn([C@H]2CC[C@@H](COP([O-])(=S)OP(=O)(O)C(F)(F)P(O)(O)=S)O2)c(=O)[nH]c1=O", "tested at": "0.5 µM", "read by": "fluorescence", "value": "29.1%"}
{"smiles": "Oc1cc(O)c2c(c1)O[C@H](c1ccc(O)c(O)c1)[C@H](O)C2", "tested at": "1 µg/mL", "value": "0%"}
{"smiles": "CC1=C(O)c2c(oc(-c3ccccc3)cc2=O)C(C)(C)C1=O", "tested at": "200 µg/mL", "read by": "RT activity / radiometric", "value": "31%"}
{"smiles": "Cc1cn([C@H]2C[C@H](N=[N+]=[N-])[C@@H](COP(=S)([S-])OP(=O)(O)C(F)(F)P(=O)(O)O)O2)c(=O)[nH]c1=O", "tested at": "0.5 µM", "read by": "fluorescence", "value": "19%"}
{"smiles": "COc1cc2c(cc1OC)C1Cc3ccc4c(c3CN1CC2)OCO4", "tested at": "200 µg/mL", "read by": "RT activity / radiometric", "value": "33%"}
{"smiles": "Clc1ccccc1-c1nc2cccc(Br)n2c1NC1CCCCC1", "tested at": "50 µM", "read by": "ELISA", "value": "93.9%"}
{"smiles": "COc1c(O)cc2oc(-c3ccc(O)cc3)cc(=O)c2c1O", "tested at": "100 µg/mL", "read by": "RT activity / absorbance", "value": "57.9%"}
{"smiles": "O=c1c(O)c(-c2ccc(O)c(O)c2)oc2cc(O)c(O)c(O)c12", "tested at": "2 µg/mL", "value": "90%"}
{"smiles": "Cc1ccc2c(c1O)C(=O)C=CC2=O", "tested at": "50 µg/mL", "read by": "RT activity", "value": "75%"}
{"smiles": "Nc1nc(=O)n([C@H]2C=C[C@@H](COP(=O)(O)OP(=O)(O)OP(=O)(O)O)O2)cc1F", "tested at": "2.2 µM", "value": "90%"}
{"smiles": "O=C(/C=C/c1ccc(O)c(O)c1)O[C@@H]1C[C@](OC(=O)/C=C/c2ccc(O)c(O)c2)(C(=O)O)C[C@@H](O)[C@H]1O", "strain or isolate": "LAI", "tested at": "50 µg/mL", "value": "26%"}
{"smiles": "O=[Se]([O-])[O-]", "tested at": "10 µM", "read by": "ELISA", "value": "16%"}
{"smiles": "COc1nc(C)nc(N2C(=O)CSC2c2c(Cl)ncnc2Cl)n1", "tested at": "10 µg/mL", "read by": "RT activity / ELISA / absorbance", "value": "12.24%"}
{"smiles": "Cc1cc(O)c2c(c1)C(=O)C=C(c1c(C)cc(O)c3c1C(=O)C=CC3=O)C2=O", "tested at": "100 µg/mL", "read by": "RT activity", "value": "0%"}
{"smiles": "CCC1=C(C[C@H]2NCCc3cc(OC)c(OC)cc32)C[C@H]2c3cc(OC)c(OC)cc3CCN2C1", "tested at": "400 µg/mL", "value": "10–20%"}
{"smiles": "C/C=C/c1ccc2c(c1)[C@H](C)[C@@H](c1ccc(O)cc1)O2", "tested at": "200 µg/mL", "read by": "RT activity / radiometric", "value": "73.2%"}
{"smiles": "COc1cc(-c2oc3cc(O)cc(O)c3c(=O)c2O)ccc1O", "tested at": "200 µg/mL", "read by": "RT activity / ELISA", "value": "56.99%"}
{"smiles": "O=C(/C=C/c1ccc(O)c(O)c1)OC1[C@H](OC(=O)/C=C/c2ccc(O)c(O)c2)CC(O)(C(=O)O)C[C@H]1OC(=O)/C=C/c1ccc(O)c(O)c1", "strain or isolate": "IIIB", "tested at": "10 µg/mL", "value": "95.6%"}
{"smiles": "CC(=O)N1CCN(C(=O)c2cc(O)c(O)c(O)c2)CC1", "strain or isolate": "BH10", "tested at": "50 µM", "read by": "ELISA / nucleotide incorporation", "value": "<5%"}
{"smiles": "N#Cc1cccc2nc(-c3ccccc3Cl)c(NC3CCCCC3)n12", "tested at": "50 µM", "read by": "ELISA", "value": "95.3%"}
{"smiles": "O=C(O)CP(=O)(O)O", "tested at": "70 µM", "read by": "ELISA", "value": "0%"}
{"smiles": "CCN1c2ncc(COc3ccc(O)cc3)cc2C(=O)N(C)c2ccc(Cl)nc21", "tested at": "1 µM", "read by": "RT activity", "mutations": "RT-Y188L", "value": "13%"}
{"smiles": "Clc1ccc2nc(-c3ccccc3Cl)c(NC3CCCCC3)n2c1", "tested at": "50 µM", "read by": "ELISA", "value": "80%"}
{"smiles": "O=C1CSC(c2c(F)cccc2Cl)N1n1cnnc1", "tested at": "100 µg/mL", "read by": "RT activity / ELISA / absorbance", "value": "52.91%"}
{"smiles": "CCN1c2ncccc2-c2cnc(C)n2-c2ccc(-c3cn[nH]c3)nc21", "strain or isolate": "LAV", "tested at": "1 µM", "read by": "nucleotide incorporation", "mutations": "RT-Y181C", "value": "88%"}
{"smiles": "CCN1c2ncccc2C=Cc2cccnc21", "tested at": "1 µM", "read by": "nucleotide incorporation", "mutations": "RT-L100I", "value": "80%"}
{"smiles": "COc1cc(C)c(Cl)c2c1C(=O)C=CC2=O", "tested at": "100 µg/mL", "read by": "RT activity", "value": "94%"}
{"smiles": "O=C1CSC(c2c(Br)cncc2Br)N1n1cnnc1", "tested at": "10 µg/mL", "read by": "RT activity / ELISA / absorbance", "value": "4.55%"}
{"smiles": "COc1ccc(/C=C/N(C)C(C)=O)c(OC)c1", "tested at": "200 µg/mL", "read by": "ELISA", "value": "69.45%"}
{"smiles": "CO[C@H]1O[C@H](CN2C(=O)CS[C@H]2c2c(Cl)cccc2Cl)[C@@H](O)[C@H](O)[C@H]1O", "tested at": "25 µg/mL", "read by": "ELISA", "value": "39.4%"}
{"smiles": "[Tl+]", "tested at": "100 µM", "read by": "ELISA", "value": "5%"}
{"smiles": "O=C(O[C@@H]1OC2CC(=O)c3cc(O)c(O)c(O)c3-c3c(cc(O)c(O)c3O)C(=O)OC2C2OC(=O)c3cc(O)c(O)c(O)c3-c3c(cc(O)c(O)c3O)C(=O)OC21)c1cc(O)c(O)c(O)c1", "tested at": "20 µg/mL", "read by": "nucleotide incorporation", "value": "3%"}
{"smiles": "CC(C)=CC(=O)C[C@@H](C)[C@H]1CC[C@@]2(C)[C@@H]3CC[C@H]4[C@](C)(C(=O)O)[C@@H](O)CC[C@@]45C[C@@]35CC[C@]12C", "tested at": "200 µg/mL", "read by": "nucleotide incorporation / radiometric", "value": "92.3%"}
{"smiles": "CC/C=C\\C/C=C\\C/C=C\\C/C=C\\C/C=C\\CCCC(=O)OC(CO[C@H]1O[C@H](CS(=O)(=O)O)[C@@H](O)[C@H](O)[C@H]1O)OC(=O)CCCCCCCCCCCCCCC", "tested at": "30 µM", "value": ">90%"}
{"smiles": "[Cs+]", "tested at": "10 µM", "read by": "ELISA", "value": "2%"}
{"smiles": "CCN1c2ncc(COc3ccc(C(=O)OC)cc3)cc2C(=O)N(C)c2ccc(Cl)nc21", "tested at": "1 µM", "read by": "RT activity", "mutations": "RT-Y188L", "value": "20%"}
{"smiles": "[Ba+2]", "tested at": "100 µM", "read by": "ELISA", "value": "3%"}
{"smiles": "C=C(Cc1ccc(O)cc1)C(=C)Cc1ccc(O)cc1", "tested at": "250 µg/mL", "value": "0%"}
{"smiles": "C[C@@H]1[C@H](O)[C@@H](C)/C=C/C=C/C=C/C=C/C=C/C=C/C=C/[C@H](O[C@@H]2O[C@H](C)[C@@H](O)[C@H](N)[C@@H]2O)CC2O[C@](O)(CC(O)C(O)CCC(O)CC(O)CC(O)CC(=O)O[C@H]1C)CC(O)C2C(=O)O.O=S(=O)(O)O", "tested at": "40 µg/mL", "read by": "RT activity", "value": "30%"}
{"smiles": "O=C(/C=C/c1ccc(O)c(O)c1)O[C@@H]1CC(O)(C(=O)O)C[C@@H](OC(=O)/C=C/c2ccc(O)c(O)c2)C1O", "tested at": "100 µg/mL", "read by": "RT activity / absorbance", "value": "54.3%"}
{"smiles": "Cc1cn([C@H]2C[C@H](F)[C@@H](COP([O-])(=S)OP(=O)(O)C(F)(F)P(=O)(O)O)O2)c(=O)[nH]c1=O", "tested at": "10 µM", "read by": "fluorescence", "value": "0.4%"}
{"smiles": "Oc1cc(O)c2c(c1)O[C@H](c1ccc(O)c(O)c1)[C@H](O)C2", "strain or isolate": "LAV", "tested at": "0.1 µg/mL", "value": "0%"}
{"smiles": "COC(=O)C(N)CC(=O)COC(=O)[C@H]1O[C@H](O[C@H]2CC[C@]3(C)[C@H]4C(=O)C=C5[C@@H]6C[C@@](C)(C(=O)O)CC[C@]6(C)CC[C@@]5(C)[C@]4(C)CC[C@H]3C2(C)C)[C@H](O[C@@H]2O[C@H](C(=O)O)[C@@H](O)[C@H](O)[C@H]2O)[C@@H](O)[C@@H]1O.S", "tested at": "250 µg/mL", "value": "72.53%"}
{"smiles": "O=C(O)c1cc(O)c(O)c(O)c1", "tested at": "1 µg/mL", "value": "0%"}
{"smiles": "C=C(CC[C@@H](C)[C@H]1CC[C@@]2(C)[C@@H]3CC[C@H]4[C@](C)(C(=O)O)[C@@H](O)CC(=O)[C@@]45C[C@@]35CC[C@]12C)C(C)C", "tested at": "200 µg/mL", "read by": "nucleotide incorporation / radiometric", "value": "80.1%"}
{"smiles": "COc1cc2c(cc1OC)C1Cc3ccc(OC)c(O)c3CN1CC2", "tested at": "200 µg/mL", "read by": "RT activity / radiometric", "value": "31.6%"}
{"smiles": "Nc1nc2c(ncn2[C@H]2C=C[C@@H](COP([O-])(=S)OP(=O)(O)C(F)(F)P(=O)(O)O)C2)c(=O)[nH]1", "tested at": "10 µM", "read by": "fluorescence", "value": "0%"}
{"smiles": "COc1cc(O)cc(OC)c1C(=O)c1cc(O)cc(O)c1", "tested at": "200 µg/mL", "read by": "RT activity / radiometric", "value": "-28.93%"}
{"smiles": "CC(=O)N(/C=C/c1ccccc1Br)Cc1cc(F)cc(F)c1", "tested at": "200 µg/mL", "read by": "ELISA", "value": "88.89%"}
{"smiles": "CC(C)/C=C/c1cc(/C=C/C(=O)O)cc(/C=C/C(C)C)c1", "tested at": "200 µg/mL", "read by": "RT activity / ELISA", "value": "41.59%"}
{"smiles": "[O]=[V](=[O])[O-]", "tested at": "100 µM", "read by": "ELISA", "value": "21%"}
{"smiles": "Fc1ccc2nc(-c3ccccc3Cl)c(NC3CCCCC3)n2c1", "tested at": "50 µM", "read by": "ELISA", "value": "83%"}
{"smiles": "[Al+3]", "tested at": "100 µM", "read by": "ELISA", "value": "8%"}
{"smiles": "O=c1c2cccc(O)c2oc2cc(O)cc(O)c12", "tested at": "200 µg/mL", "read by": "RT activity / radiometric", "value": "72.01%"}

5 of the rows above, restated:

smiles | strain or isolate | tested at | read by | mutations | value
COc1cc(O)cc(OC)c1C(=O)c1cc(O)cc(O)c1 | - | 200 µg/mL | RT activity / radiometric | - | -28.93%
CCN(/C=C/c1ccc(OC)cc1OC)C(C)=O | - | 200 µg/mL | ELISA | - | 34.73%
COc1cc2oc(-c3ccc(O)cc3)cc(=O)c2c(O)c1OC | - | 100 µg/mL | RT activity / absorbance | - | 55%
COc1ccc([C@@H]2Oc3ccc(C=O)cc3C2C)cc1OC | - | 200 µg/mL | RT activity / radiometric | - | 46.5%
Clc1ccccc1-c1nc2cccc(Br)n2c1NC1CCCCC1 | - | 50 µM | ELISA | - | 93.9%

Two numbers with a dash give a range or band. Inhibition is in % at the dose shown (toxicity tests: loss of growth or viability). Blank or dashed fields: not listed here.